The match of structure and compound is tentative.
System: A/WSN/1933 (H1N1) virus
Test: Cytopathic prevention assay in MDCK cells, H1N1
Settings: read-out: EC50 (nM), anti-influenza activity, table data are ranges or single assay results

**Q.** For `COc1ccc2cc([C@H](C)C(=O)OCCCNC(=O)O[C@@H]([C@@H]3OC(C(=O)O)=C[C@H](NC(=N)N)[C@H]3NC(C)=O)[C@H](O)CO)ccc2c1`, which EC50 is on record?
**A.** 0.8 nM

— US10130714B2 (priority 2012, dated 2018)
